What was measured:
[1] = tested on: HBsAg antigen-specific IFN-γ; assay: ELISPOT of HBsAg antigen-specific IFN-γ secreted by spleen cells of immunized mice (Examples 2-4); type: in vivo, C57BL/6(N) mice; settings: CpG 10 μg/mouse alone with HBsAg 20 + HBcAg 10 μg/mouse; Day 7 after immunization; FIG. 1
[2] = tested on: HBcAg antigen-specific IFN-γ; assay: ELISPOT of HBcAg antigen-specific IFN-γ secreted by spleen cells of immunized mice (Examples 2-4); type: in vivo, C57BL/6(N) mice; settings: CpG 10 μg/mouse alone with HBsAg 20 + HBcAg 10 μg/mouse; Day 7 after immunization; FIG. 2

Sequence: TCC ATG ACG TTC CTG ATGCT (SEQ ID NO: 10)
- immune effect: induced production level of HBsAg-specific IFN-γ [1]: lower than those induced by the CpG adjuvants of type A and the CpG adjuvants of type C
- immune effect: induced production level of HBcAg-specific IFN-γ [2]: lower than those induced by the CpG adjuvants of type A and the CpG adjuvants of type C

Reference: patent publication US20230040021A1 (priority 2019, published 2023)
